The list shows a part of the results, in another mix than the full data. Some salts and complexes are drawn in separate pieces, as the source files them; their charges need not balance. Calls of active or inactive are those of the source. Cut-off read from the data, not from the text of the source: active = inhibition above about 28%; inactive = the rest.

The test deals with EBNA-1 (Epstein-Barr virus nuclear antigen 1), Human herpesvirus 4. The test is described as follows: blockers of EBV EBNA-1 binding to DNA – biochemical, fluorescence polarization, primary screen (AID 1950). The note with it: EBNA-1 DNA binding, at 14.8 µM, active compounds read high.
`O=C(OC1CN2CCC1CC2)c1ccc([N+](=O)[O-])cc1` (stereo not drawn): the inhibition (usually the drop in the measured response relative to a control, in per cent) was inactive: 2.2%.

With `O=C(OCCN1CCN(CCOCc2ccccc2)CC1)C(O)(c1ccccc1)c1ccccc1`, the inhibition was inactive: -2.47%.

`COc1ccc2c(c1O)-c1c(O)c(OC)cc3c1[C@H](C2)[N+](C)(C)CC3.O=[N+]([O-])c1cc([N+](=O)[O-])c([O-])c([N+](=O)[O-])c1[O-]`: the inhibition is inactive: 0.18%.

Consider `CP(=O)(Nc1ccccc1F)Oc1ccccc1` (stereo not drawn), for which the inhibition was inactive: 3.59%.

Consider `CC(C)c1ccc(OP(C)(=O)Nc2ccc(SC(F)(F)F)cc2)cc1` (stereo not drawn), for which the inhibition is inactive: -12.7%.

For `CCN(CC)CCCOC(=O)C(O)(c1ccccc1)C1CCCCC1` (stereo not drawn), the inhibition was inactive: -3.94%.

In the case of `CP(=O)(Nc1ccccc1)Oc1ccc(F)cc1` (stereo not drawn), the inhibition was inactive: -1.52%.

Regarding `CCCCCOc1ccc(NP(C)(=O)Oc2ccc(Cl)cc2Cl)cc1` (stereo not drawn), the inhibition was inactive: -3.45%.

For `O=[N+]([O-])c1cc([N+](=O)[O-])c(OC2CCCCC2O)c([N+](=O)[O-])c1` (stereo not drawn), the inhibition was inactive: 0.95%.

Take `CCOC(=O)c1ccc(NP(C)(=O)Oc2ccc(F)cc2)cc1` (stereo not drawn): the inhibition is inactive: 1.27%.

Regarding `COc1ccc(OP(C)(=O)Nc2ccc(SC(F)(F)F)cc2)cc1` (stereo not drawn), the inhibition is inactive: 1.29%.

For `O=[N+]([O-])c1cc([N+](=O)[O-])c(NCC2CCS(=O)(=O)C2)c([N+](=O)[O-])c1` (stereo not drawn), the inhibition is inactive: -12.9%.

Regarding `COc1ccc(OP(C)(=O)Nc2cccc(Br)c2)cc1` (stereo not drawn), the inhibition is inactive: 1.28%.

With `CN(C)CCOC(=O)C(O)(c1ccccc1)C1CCCCC1` (stereo not drawn), the inhibition was inactive: -0.46%.

As for `COc1ccc(NP(C)(=O)Oc2ccccc2OC)cc1` (stereo not drawn), the inhibition was inactive: 8.32%.

For the compound `CP(=O)(Nc1ccc2c(c1)OCCO2)Oc1ccccc1` (stereo not drawn), the inhibition was inactive: -1.74%.

For `Cc1ccccc1NP(C)(=O)Nc1ccccc1C`, the inhibition was inactive: 2.15%.

As to `CP(=O)(Nc1ccc(SC(F)(F)F)cc1)Oc1ccc(F)cc1` (stereo not drawn), the inhibition was inactive: -1.69%.

On to `CCOP(C)(=S)SCC(=O)NC(C)(CC)C(=O)O` (stereo not drawn), for which the inhibition is inactive: 4.34%.

Consider `CC(C)(C)c1ccc(OP(C)(=O)O)cc1`, for which the inhibition is inactive: 5.69%.

As for `COc1ccccc1OP(C)(=O)Nc1ccccc1Br` (stereo not drawn), the inhibition was inactive: 10.2%.

On to `CP(=O)(Nc1ccc(Cl)cc1)Oc1ccc(F)cc1` (stereo not drawn), for which the inhibition is inactive: 8.01%.

For the compound `CN(C)C(=O)c1c([N+](=O)[O-])cc([N+](=O)[O-])cc1[N+](=O)[O-]`, the inhibition is inactive: -0.43%.

`COc1ccc(OP(C)(=O)Nc2ccc(Br)cc2)cc1` (stereo not drawn): the inhibition is inactive: 5.65%.

Consider `CCN(CC)CC(O)COC(=O)C(O)(c1ccccc1)C1CCCCC1` (stereo not drawn), for which the inhibition is inactive: 2.06%.

As for `O=C(OCCCN1CCCC1)C(O)(c1ccccc1)C1CCCCC1` (stereo not drawn), the inhibition was inactive: 4.34%.

For `COc1ccccc1OP(C)(=O)Nc1c(C)n(C)n(-c2ccccc2)c1=O` (stereo not drawn), the inhibition is inactive: 0.04%.

Consider `CCc1ccc(OP(C)(=O)Nc2cccnc2)cc1` (stereo not drawn), for which the inhibition is inactive: -8.08%.

As for `CP(=O)(Oc1ccccc1)N1CCOC1=O` (stereo not drawn), the inhibition is inactive: -2.53%.

Take `Nc1ccc2c(ccc3cccnc32)n1.O=[N+]([O-])c1cc([N+](=O)[O-])c(O)c([N+](=O)[O-])c1`: the inhibition was inactive: 1.39%.

For the compound `CCOC(=O)c1ccc(NP(C)(=O)Oc2ccc(Cl)cc2)cc1` (stereo not drawn), the inhibition was inactive: 5.2%.

For the compound `CP(=O)(OC12CC3CC(CC(C3)C1)C2)OC12CC3CC(CC(C3)C1)C2`, the inhibition was inactive: 5.26%.

On to `Cc1nc2ccc3ccccc3c2o1.O=[N+]([O-])c1cc([N+](=O)[O-])c(O)c([N+](=O)[O-])c1`, for which the inhibition is inactive: 8.66%.

As for `CP(=O)(OCCOc1ccccc1)OCCOc1ccccc1`, the inhibition is inactive: -0.58%.

With `CP(=O)(Nc1ccc(Cl)cc1Cl)Oc1ccccc1` (stereo not drawn), the inhibition was inactive: -6.92%.

As for `Cc1cc(C)cc(OP(C)(=O)Nc2cccc(C(F)(F)F)c2)c1` (stereo not drawn), the inhibition is inactive: 0.92%.

For the compound `COc1ccccc1OP(C)(=O)Nc1ccc(C)c(C)c1` (stereo not drawn), the inhibition was inactive: -2.05%.

As to `COc1ccc(OP(C)(=O)Nc2ccccc2Br)cc1` (stereo not drawn), the inhibition is inactive: 1.16%.

For the compound `O=[N+]([O-])c1cc([N+](=O)[O-])c(Nc2ccccn2)c([N+](=O)[O-])c1`, the inhibition is inactive: -2.7%.

As to `Cc1c(NP(C)(=O)Oc2ccc(C(C)C)cc2)c(=O)n(-c2ccccc2)n1C` (stereo not drawn), the inhibition is inactive: 0.42%.

In the case of `COc1ccccc1OP(C)(=O)Nc1ccc(C)cc1C` (stereo not drawn), the inhibition was inactive: -2.68%.

Regarding `CP(=O)(Nc1ccccn1)Oc1ccccc1` (stereo not drawn), the inhibition was inactive: 2.24%.

As to `CCc1ccc(OP(C)(=O)O)cc1`, the inhibition was inactive: 1.37%.

For `COc1ccccc1OP(C)(=O)Nc1ccc(Br)cc1` (stereo not drawn), the inhibition is inactive: -15.4%.

For `COc1ccc(OP(C)(=O)Nc2ccccn2)cc1` (stereo not drawn), the inhibition is inactive: -2.59%.

Turning to `CN(C)CCOC(=O)C(O)(c1ccccc1)C1CCCC1` (stereo not drawn), the inhibition was inactive: 6.09%.

Take `CCN(CC)CCCOC(=O)C(O)(c1ccccc1)c1ccccc1`: the inhibition is inactive: -3.3%.

Turning to `Cc1ccc(NP(C)(=O)Oc2ccccc2)c(C)c1` (stereo not drawn), the inhibition was inactive: 5.02%.

Turning to `COc1ccccc1OP(C)(=O)Nc1ccc(C)cc1` (stereo not drawn), the inhibition was inactive: 6.71%.

For `CCOC(=O)c1ccc(NP(C)(=O)Oc2ccccc2)cc1` (stereo not drawn), the inhibition is inactive: 0.99%.

As to `Cc1cc(C)cc(OP(C)(N)=O)c1` (stereo not drawn), the inhibition was inactive: -5.47%.

Turning to `COc1ccc(OP(C)(=O)Nc2cccc(F)c2)cc1` (stereo not drawn), the inhibition was inactive: -4.95%.

For `COc1ccccc1OP(C)(=O)Nc1cc(Cl)ccc1C` (stereo not drawn), the inhibition was inactive: 3.91%.

Regarding `O=[N+]([O-])c1cc([N+](=O)[O-])c(Nc2cccnc2)c([N+](=O)[O-])c1`, the inhibition was inactive: 4.35%.

On to `O=[N+]([O-])c1ccc2c(c1)C=Nc1ccccc1O2`, for which the inhibition was inactive: 9.68%.

For the compound `Cc1cccc(C)c1OP(C)(N)=O` (stereo not drawn), the inhibition is inactive: -6.32%.

In the case of `CC(C)(C)c1ccc(OP(C)(=O)Nc2ccc(SC(F)(F)F)cc2)cc1` (stereo not drawn), the inhibition was inactive: -0.89%.

Turning to `CP(=S)(Nn1cnnc1)Oc1ccccc1` (stereo not drawn), the inhibition is inactive: 2.15%.

With `CP(=O)(Nc1ccccc1Br)Oc1ccccc1` (stereo not drawn), the inhibition is inactive: -8.72%.

As to `COc1ccccc1OP(C)(=O)Nc1ccccc1` (stereo not drawn), the inhibition is inactive: 1.03%.

As for `CCOC(=O)c1ccc(NP(C)(=O)Oc2ccc(OC)cc2)cc1` (stereo not drawn), the inhibition is inactive: -10.1%.

Take `O=[N+]([O-])c1cc([N+](=O)[O-])c(O)c([N+](=O)[O-])c1.c1ccc(Oc2ccncc2)cc1`: the inhibition is inactive: -12.1%.

On to `CCOP(C)(=S)SCC(=O)NC(C)C(=O)O` (stereo not drawn), for which the inhibition is inactive: -4.12%.

With `CP(=O)(Nc1ccccn1)Oc1ccc(Cl)cc1` (stereo not drawn), the inhibition is inactive: 5.48%.

Turning to `CP(=O)(Oc1ccccc1)OC(c1ccccc1)C(F)(F)F` (stereo not drawn), the inhibition is inactive: 1.41%.

Consider `Cc1cccc(C)c1OP(C)(=O)Nc1ccc(SC(F)(F)F)cc1` (stereo not drawn), for which the inhibition is inactive: -6.36%.

In the case of `CP(=O)(Nc1ccc(SC(F)(F)F)cc1)Oc1ccc(Cl)cc1` (stereo not drawn), the inhibition was inactive: -3.73%.

For the compound `Cc1cc(C)cc(OP(C)(=O)Nc2ccc(SC(F)(F)F)cc2)c1` (stereo not drawn), the inhibition is inactive: 5.34%.

In the case of `CCc1ccc(OP(C)(=O)N2CCN(c3ccc([N+](=O)[O-])cc3)CC2)cc1` (stereo not drawn), the inhibition was inactive: 5.23%.

As for `CP(=O)(NC(=O)Nc1ccccc1)Oc1ccccc1` (stereo not drawn), the inhibition was inactive: 2.56%.

In the case of `O=[N+]([O-])c1cc([N+](=O)[O-])c(-c2cnn(-c3ccccc3)c2)c([N+](=O)[O-])c1`, the inhibition was inactive: -11%.

Turning to `Cc1nc2ccc3ccccc3c2s1.O=[N+]([O-])c1cc([N+](=O)[O-])c(O)c([N+](=O)[O-])c1`, the inhibition is inactive: -9.29%.

Consider `O=[N+]([O-])c1cc([N+](=O)[O-])c(-n2nnc3ccccc32)c([N+](=O)[O-])c1`, for which the inhibition is inactive: 12.9%.

For `COc1ccccc1OP(C)(=O)Nc1c(C)cccc1C` (stereo not drawn), the inhibition was inactive: 14.7%.

As to `CN1CCCCC1COC(=O)C1(O)c2ccccc2CCc2ccccc21` (stereo not drawn), the inhibition is inactive: -5.95%.

For `CP(=O)(Nc1ccc(SC(F)(F)F)cc1)Oc1ccccc1` (stereo not drawn), the inhibition is inactive: 7.02%.

Regarding `CCCOc1ccc(NP(C)(=O)Oc2ccc(Cl)cc2)cc1` (stereo not drawn), the inhibition is inactive: 6.43%.

Regarding `CCOC(=O)C(CC)C1=NC(C)(C)Cc2ccccc21.O=[N+]([O-])c1cc([N+](=O)[O-])c(O)c([N+](=O)[O-])c1` (stereo not drawn), the inhibition is inactive: -1.07%.

In the case of `O=[N+]([O-])c1cc([N+](=O)[O-])c(Nc2nnnn2CCO)c([N+](=O)[O-])c1`, the inhibition was inactive: 0.76%.

In the case of `CC1=C2N=C(C=C3N=C(C(C)=C4[N-][C@@](C)([C@@H]5N=C1[C@](C)(CCC(=O)NC[C@@H](C)OP(=O)([O-])O[C@H]1[C@@H](O)[C@@H](n6cnc7cc(C)c(C)cc76)O[C@@H]1CO)[C@H]5CC(N)=O)[C@@](C)(CC(N)=O)[C@@H]4CCC(N)=O)[C@@](C)(CC(N)=O)[C@@H]3CCC(N)=O)C(C)(C)[C@@H]2CCC(N)=O.[C-]#N.[Co+3]`, the inhibition was inactive: -6.92%.

As to `CC1=NCCc2c1[nH]c1ccccc21.O=[N+]([O-])c1cc([N+](=O)[O-])c(O)c([N+](=O)[O-])c1`, the inhibition is inactive: 10.6%.

Regarding `O=C(O)c1cccc(Nc2c([N+](=O)[O-])cc([N+](=O)[O-])cc2[N+](=O)[O-])c1`, the inhibition was inactive: -19%.

`Cc1ccc(C)c(NP(C)(=O)Oc2ccccc2)c1` (stereo not drawn): the inhibition is inactive: -2.53%.

With `CP(=O)(Nc1cccc(Br)c1)Oc1ccccc1` (stereo not drawn), the inhibition was inactive: 11.8%.

In the case of `Cc1cc(C)cc(OP(C)(=O)Nc2ccccn2)c1` (stereo not drawn), the inhibition is inactive: 3.21%.

For `COc1ccccc1OP(C)(=O)Nc1cccc(Br)c1` (stereo not drawn), the inhibition was inactive: 3.25%.

`CCOC(=O)c1ccc(NP(C)(=O)Oc2cc(C)cc(C)c2)cc1` (stereo not drawn): the inhibition was inactive: -1.74%.

As to `Cc1cc(C)cc(OP(C)(=O)Nc2ccc(C)cc2C)c1` (stereo not drawn), the inhibition is inactive: -6.5%.
